According to US20050191296A1 (YISSUM RESEARCH DEVELOPMENT COMPANY OF THE HEBREW …, published 2005):

Columns and labels:
[1] = target: staphylococcal enterotoxin B (Staphylococcus aureus) (UniProt P01552); assay: SPR (BIAcore), SEB immobilized, sB7-2 as analyte
[2] = target: staphylococcal enterotoxin B (Staphylococcus aureus, UniProt P01552 28-266); assay: SPR (BIAcore), SEB immobilized, soluble receptor-Fc as analyte

Row | Molecule | Kd [1] [nM] | Kd [2] [nM]
1 | soluble B7-2 (B7-2-Fc, R&D Systems catalogue no. 141-B2) (from UniProt P42081 20-239) (Fc fusion) | 25 | –
2 | soluble ICOS (ICOS-Fc, R&D Systems) (Fc fusion) EINGSANYEMFIFHNGGVQILCKYPDIVQQFKMQLLKGGQILCDLTKTKGSGNTVSIKSLKFCHSQLSNNSVSFFLYNLDHSHANYYFCNLSIFDPPPFKVTLTGGYLHIYESQLCCQLKF | – | 21
